Measurements taken from patent US20200262877A1, “ION CHANNEL-BINDING PEPTIDES AND METHODS OF USE THEREOF” (priority 2017, published 2020).

T1: hERG, Q12809
T1 chain: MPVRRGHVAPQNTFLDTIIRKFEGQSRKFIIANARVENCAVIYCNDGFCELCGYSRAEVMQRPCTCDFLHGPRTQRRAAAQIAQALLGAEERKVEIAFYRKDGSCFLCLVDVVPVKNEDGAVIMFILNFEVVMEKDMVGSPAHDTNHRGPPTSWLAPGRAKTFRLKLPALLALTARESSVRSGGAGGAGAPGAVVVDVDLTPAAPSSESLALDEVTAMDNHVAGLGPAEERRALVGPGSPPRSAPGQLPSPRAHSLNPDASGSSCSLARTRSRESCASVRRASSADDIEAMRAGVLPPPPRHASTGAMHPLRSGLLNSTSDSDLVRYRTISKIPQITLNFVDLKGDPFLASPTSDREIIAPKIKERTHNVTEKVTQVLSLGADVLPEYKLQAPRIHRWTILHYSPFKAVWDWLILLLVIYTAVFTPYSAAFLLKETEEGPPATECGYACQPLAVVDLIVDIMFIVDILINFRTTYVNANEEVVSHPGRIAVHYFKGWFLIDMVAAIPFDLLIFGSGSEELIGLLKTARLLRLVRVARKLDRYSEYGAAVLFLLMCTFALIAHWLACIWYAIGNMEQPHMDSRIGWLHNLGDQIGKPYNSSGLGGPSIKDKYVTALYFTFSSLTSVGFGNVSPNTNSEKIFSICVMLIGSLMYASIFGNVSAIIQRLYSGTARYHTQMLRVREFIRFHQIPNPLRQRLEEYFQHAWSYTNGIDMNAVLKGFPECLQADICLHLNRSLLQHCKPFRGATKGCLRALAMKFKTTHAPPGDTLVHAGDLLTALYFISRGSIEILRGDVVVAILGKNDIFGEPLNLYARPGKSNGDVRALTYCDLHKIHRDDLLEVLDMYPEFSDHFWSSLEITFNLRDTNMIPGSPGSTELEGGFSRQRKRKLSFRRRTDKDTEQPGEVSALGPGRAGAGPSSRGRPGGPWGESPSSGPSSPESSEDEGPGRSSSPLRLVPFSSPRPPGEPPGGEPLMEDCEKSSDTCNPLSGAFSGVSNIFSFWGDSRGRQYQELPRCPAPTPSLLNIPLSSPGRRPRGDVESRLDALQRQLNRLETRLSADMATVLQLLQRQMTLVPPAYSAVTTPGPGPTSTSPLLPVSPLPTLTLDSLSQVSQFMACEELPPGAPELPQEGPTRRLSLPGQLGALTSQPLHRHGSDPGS

B1: SEQ ID NO: 11 (peptide)
peptide: GSGDCLPHLKRCKENNDCCSKKCKRRGANPEKRCR
modifications: not checked
B2: SEQ ID NO: 7 (peptide)
peptide: GSDCVRFWGKCSQTSDCCPHLACKSKWPRNICVWDGSVG
modifications: not checked

molecular target: NR2A; assay: cell-based or functional assay

Going from B1 to B2, the % activity at 0.2 µM rises from 103% to 107%.

First: B1
Second: B2
The % activity at 20 µM of the first is higher: 106% for the first, 65% for the second.

molecular target: TRPA1; assay: cell-based or functional assay

First: B1
Second: B2
The % activity at 0.2 µM of the first is lower: 100% for the first, 151% for the second.

In the case of B2, the % activity at 20 µM is reported as 85%.

molecular target: Kv1.1; assay: cell-based or functional assay

Going from B1 to B2, the % activity at 0.2 µM falls from 99% to 92%.

Going from B1 to B2, the % activity at 20 µM rises from 55% to 102%.

molecular target: Cav2.1; assay: cell-based or functional assay

Going from B1 to B2, the % activity at 0.2 µM rises from 104% to 118%.

First: B1
Second: B2
The % activity at 20 µM of the first is higher: 110% for the first, -6% for the second.

Molecular target: T1, hERG, Q12809
Assay: cell-based or functional assay

Compared with B1, B2 is lower in % activity at 0.2 µM: 97% for the first, 95% for the second.

First: B1
Second: B2
The % activity at 20 µM of the first is higher: 99% for the first, 1% for the second.

molecular target: Kv1.3; assay: cell-based or functional assay

Compared with B1, B2 is lower in % activity at 0.2 µM: 101% for the first, 92% for the second.

Going from B1 to B2, the % activity at 20 µM falls from 87% to 74%.

molecular target: TRPV1; assay: cell-based or functional assay

Compared with B1, B2 is higher in % activity at 0.2 µM: 100% for the first, 118% for the second.

Compared with B1, B2 is lower in % activity at 20 µM: 100% for the first, 73% for the second.

molecular target: Kir2.1; assay: cell-based or functional assay

Compared with B1, B2 is lower in % activity at 0.2 µM: 107% for the first, 103% for the second.

Going from B1 to B2, the % activity at 20 µM rises from 97% to 101%.

molecular target: α4β2 nicotinic receptor; assay: cell-based or functional assay

Going from B1 to B2, the % activity at 0.2 µM falls from 111% to 97%.

Compared with B1, B2 is lower in % activity at 20 µM: 88% for the first, 84% for the second.

molecular target: 5HT3a; assay: cell-based or functional assay

First: B1
Second: B2
The % activity at 0.2 µM of the first is lower: 73% for the first, 98% for the second.

First: B1
Second: B2
The % activity at 20 µM of the first is higher: 85% for the first, 84% for the second.

molecular target: Kv2.1; assay: cell-based or functional assay

First: B1
Second: B2
The % activity at 0.2 µM of the first is higher: 121% for the first, 105% for the second.

Compared with B1, B2 is lower in % activity at 20 µM: 110% for the first, 65% for the second.

molecular target: Kv1.2; assay: cell-based or functional assay

Compared with B1, B2 is higher in % activity at 0.2 µM: 103% for the first, 111% for the second.

Compared with B1, B2 is higher in % activity at 20 µM: 46% for the first, 68% for the second.

molecular target: α3β4 nicotinic receptor; assay: cell-based or functional assay

Compared with B1, B2 is higher in % activity at 0.2 µM: 95% for the first, 104% for the second.

Going from B1 to B2, the % activity at 20 µM falls from 96% to 87%.

molecular target: Cav2.2; assay: cell-based or functional assay

First: B1
Second: B2
The % activity at 0.2 µM of the first is higher: 100% for the first, 87% for the second.

First: B1
Second: B2
The % activity at 20 µM of the first is higher: 103% for the first, -2% for the second.

molecular target: GABA; assay: cell-based or functional assay

Compared with B1, B2 is higher in % activity at 0.2 µM: 96% for the first, 118% for the second.

First: B1
Second: B2
The % activity at 20 µM of the first is lower: 105% for the first, 121% for the second.

molecular target: NR2B; assay: cell-based or functional assay

Compared with B1, B2 is higher in % activity at 0.2 µM: 103% for the first, 117% for the second.

Compared with B1, B2 is lower in % activity at 20 µM: 78% for the first, 53% for the second.
